Assay results published in publication PMC5361054, “Exploring the Association of Surface Plasmon Resonance with Recombinant MHC:Ig Hybrid Protein as a Tool for Detecting T Lymphocytes in Mice Infected with Leishmania (Leishmania) amazonensis” (BioMed Research International, 2017).

What follows are sequences tested on H-2 L^d:Ig (DimerX) protein (assay: SPR kinetics of synthetic peptide binding to immobilized DimerX). Details: calculated from ka and kd of the SPR assay at 25°C, neutral pH.
Set-up: species or system Mouse
Method: Surface Functionalization of Sensor Chip (Steps 1 and 2). The functionalization process was performed in eight steps using running buffer (10 mM HEPES, 3 mM EDTA, 150 mM NaCl, and 0.005% Tween 20, pH 7.4) at a continuous flow rate (Fr): (i) injection of 10 μL of 50 mM HCl (Fr = 10 μL/min); (ii) injection of 100 μL 10 mM CH3COOH (Fr = 50 μL/min); (iii) injection of 150 μL of coupling agents (1 : 1) 400 mM EDC : NHS (Fr = 15 μL/min); (iv) injection of 100 μL 10 mM CH3COOH (Fr = 50 μL/min); (v) injection of 100 μL (0.5 μg) of DimerX H-2 L^d:Ig (Fr = 10 μL/min); (vi) injection of 100 μL 10 mM CH3COOH (Fr = 50 μL/min); (vii) injection of 150 μL 100 mM ethanolamine (Fr = 20 μL/min); and (viii) injection of 200 μL 50 mM HCl (Fr = 50 μL/min).
Complex Formation of H-2 L ^d :Ig/Peptide (Step 3). Binding of peptides to protein DimerX was performed through the injection of 100 μL of each synthetic peptide over the functionalized sensor chip (Fr = 10 μL/min). The peptides (2 mg/mL) were diluted in filtrated PBS, which was also used as the running buffer. The concentration of peptides for binding to the DimerX was determined according to the manufacturer's instructions:(1) Mp=MH·R·Dp/DH, where Mp is micrograms of the peptide, MH is micrograms of H-2 in the reaction, R is molar excess (160 mol) between the peptide and protein H-2, Dp is molecular weight of the peptide, and DH is molecular weight of DimerX (250,000 Da).
Affinity Constants and Gibbs Free Energy. […] The following calculation was used to obtain the KD for interactions that rapidly reach equilibrium:(2) KD=kd/ka. The formation of molecular complex between DimerX and peptides complex was also analyzed to calculate the Gibbs free energy of dissociation. This energy is related to the equilibrium constant (Keq) of the transition state between the product (DimerX/peptide) and its transient state. The values of Keq were calculated using the ka and kd data obtained from the SPR assay at 25°C:(3) ΔG^°=−RTln1/Keq.
The kinetic parameters of DimerX/peptides complexes were assessed, prior to the ex vivo assay with the mouse cells, to ensure that the assayed peptides could stably bind to the H-2 cleft of DimerX proteins. The DimerX proteins were immobilized onto the sensor chip using the EDC/NHS methodology for covalent binding and, thus, we assumed that the α1 and α2 domains of the recombinant H-2 were free to interact with the synthetic peptides in solution. The RU value obtained after DimerX immobilization was taken as reference to define the baseline to measure peptides binding (Figure 1).

| Sequence | free Gibbs energy (ΔG) [kcal/mol] |
| --- | --- |
| VEQVICFD [P1.10, synthetic peptide VEQVICFD derived from the COOH-terminal region of cysteine proteinase B of L. (L.) amazonensis] | -12.2 |
| EFCLGGGLC [P6.5, synthetic peptide … derived from the COOH-terminal region of cysteine proteinase B of L. (L.) amazonensis] | -12.5 |
| CLGGGLCL [P6.4, synthetic peptide CLGGGLCL derived from the COOH-terminal region of cysteine proteinase B of L. (L.) amazonensis] | -11.0 |
| MVEQVICFD [P1.9, synthetic peptide … derived from the COOH-terminal region of cysteine proteinase B of L. (L.) amazonensis] | -09.7 |
